# Earlier results, collected in paper PMC6153800, “Structure-Based Drug Design and Characterization of Sulfonyl-Piperazine Benzothiazinone Inhibitors of DprE1 from Mycobacterium tuberculosis” (Antimicrobial Agents and Chemotherapy, 2018).
# By UniProt entry, the sequences of proteins in these tests, tags left out.
# UniProt P9WJF1, whole entry C387S: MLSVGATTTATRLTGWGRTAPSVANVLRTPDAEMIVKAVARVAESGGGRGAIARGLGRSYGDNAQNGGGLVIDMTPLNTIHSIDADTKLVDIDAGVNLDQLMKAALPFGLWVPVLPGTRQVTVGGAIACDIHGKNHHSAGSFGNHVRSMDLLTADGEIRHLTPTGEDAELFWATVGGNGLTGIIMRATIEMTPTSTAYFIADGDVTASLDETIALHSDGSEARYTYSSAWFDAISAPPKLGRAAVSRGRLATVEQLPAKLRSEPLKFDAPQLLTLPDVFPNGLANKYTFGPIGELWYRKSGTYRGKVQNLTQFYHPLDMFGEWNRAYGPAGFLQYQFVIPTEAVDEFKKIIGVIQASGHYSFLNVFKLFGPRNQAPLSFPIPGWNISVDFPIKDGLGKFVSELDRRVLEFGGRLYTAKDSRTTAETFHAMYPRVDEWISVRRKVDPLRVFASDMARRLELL
# Biological target: BTZ-resistant M. tuberculosis C387S DprE1 (Mycobacterium tuberculosis, UniProt P9WJF1, C387S)
# Conditions: read-out: IC50 C387S DprE1; BTZ-resistant C387S mutant enzyme; ref (1) Foo et al. 2016; cited from earlier work
structure (smiles),measurement,value
COc1ccc(CNc2nc3cc(C(F)(F)F)ccc3nc2C(=O)O)cc1,IC50,200 nM
